Measured values from several laboratories, pooled; numbers as filed in NIAID ChemDB.

All rows: tests in culture; organism: Hepatitis C virus; measure: EC50

a–b is a range or a potency band. ECn: concentration that inhibits the pathogen or its effect by n%. Lines come from different laboratories, so protocols vary. Blank or dashed fields: not listed here.

| compound | strain | cell line | read by | changes | value |
|---|---|---|---|---|---|
| COC(=O)N[C@H](C(=O)N1CCC[C@H]1c1ncc(-c2ccc(-c3ccc(-c4cnc([C@@H]5CCCN5C(=O)[C@@H](NC(=O)OC)C(C)C)[nH]4)cc3)cc2)[nH]1)C(C)C | 1a | Lunet | luciferase | Q30R | 0.0061 µM |
| NC(=S)Nc1cccc(OCCCCCOc2ccc(Cc3ccccc3)cc2)c1 |  | Ava5-EG(delta4AB)SEAP | reporter gene / fluorescence |  | 0.001–1 µM |
| O=C(N[C@@H](C(=O)N1CCC[C@H]1c1ncc(-c2ccc(-c3ccc(-c4cnc([C@@H]5CCCN5C(=O)[C@H](NC(=O)C5CC5)c5ccccc5)s4)cc3)cc2)s1)c1ccccc1)C1CC1 | genotype 1b | Huh7.5 | luciferase / reporter gene | Y93C | 0.000078 µM |
| COCC(=O)N1c2cccc(O)c2NC2=C(C(=O)CC(C)(C)C2)[C@@H]1c1ccc(OCc2ccccc2)cc1F | 1b |  | luciferase / reporter gene / replicon |  | 0.65 µM |
| CCCCCOc1ccc(N(C(=O)C2CC2)c2nc(-c3cccnc3)cs2)cc1F |  |  |  |  | <1 µM |
| CC(=O)N1c2cccc(O)c2NC2=C(C(=O)CC(C)(C)C2)[C@@H]1c1ccc(OCc2ccccc2)cc1Cl | 1b |  | luciferase / reporter gene / replicon |  | 2.39 µM |
| CCCCCN(C)c1ccc(N(C(N)=O)c2nc(-c3ccc(C)nc3)cs2)cc1C(F)(F)F |  |  |  |  | <1 µM |
| CC(=O)c1ccc(C2Nc3cccc(O)c3NC3=C2C(=O)CC(C)(C)C3)cc1 | 1b |  | luciferase / reporter gene / replicon |  | >100 µM |
| CCNC(=S)Nc1cccc(OCCCCCc2ccccc2)c1 |  | Ava5-EG(delta4AB)SEAP | reporter gene / fluorescence |  | 0.001–1 µM |
| CC(=O)N1c2cccc(O)c2NC2=C(C(=O)CC(C)(C)C2)C1c1ccc(Oc2ccccc2-c2ccccc2)cc1Cl | 1b |  | luciferase / reporter gene / replicon |  | 7.54 µM |
| NC(=O)N(c1ccc(F)c(C(F)(F)F)c1)c1nc(-c2cccnc2)cs1 |  |  |  |  | <1 µM |
| CCCNC(=S)Nc1cccc(OCCCCCc2ccccc2)c1 |  | Ava5-EG(delta4AB)SEAP | reporter gene / fluorescence |  | 0.001–1 µM |
| CC(=O)N1c2cccc(O)c2NC2=C(C(=O)CC(C)(C)C2)C1c1cccs1 | 1b |  | luciferase / reporter gene / replicon |  | 1.94 µM |
| NC(=S)Nc1ccc2c(c1)Cc1cc(N(CCCc3ccccc3)CCCc3ccccc3)ccc1-2 |  | Ava5-EG(delta4AB)SEAP | reporter gene / fluorescence |  | 0.001–1 µM |
| COc1c(-c2ccc3cc(NS(C)(=O)=O)ccc3c2)cc(-n2ccc(=O)[nH]c2=O)cc1C(C)(C)C | genotype 1b Con1 | Huh7 | luciferase | C316Y | 0.926 µM |
| CCCCCN(C)c1ccc(N(C(=O)C(=O)OC)c2nc(-c3cccnc3)cs2)cc1C(F)(F)F |  |  |  |  | <1 µM |
| NC(=S)Nc1cccc(OCCCCCOc2cccc(Oc3ccccc3)c2)c1 |  | Ava5-EG(delta4AB)SEAP | reporter gene / fluorescence |  | 0.001–1 µM |
| CCCCCCCCc1ccc(N(C(C)=O)c2nc(-c3cccnc3)c(F)s2)cc1C(F)(F)F |  |  |  |  | <1 µM |
| CC(C)C(=O)N1c2cccc(O)c2NC2=C(C(=O)CC(C)(C)C2)C1c1ccc(O[C@@H](C)c2ccccc2)cc1F | 1b |  | luciferase / reporter gene / replicon |  | >32 µM |
| CCCCCCc1ccc(N(C(N)=O)c2nc(-c3cccnc3)c(F)s2)cc1C(F)(F)F |  |  |  |  | <1 µM |
| COCCOCCOC(=O)N1c2cccc(O)c2NC2=C(C(=O)CC(C)(C)C2)C1c1ccc(OCc2ccccc2)cc1Cl | 1b |  | luciferase / reporter gene / replicon |  | 4.47 µM |
| CCCCCCCCc1ccc(N(C(=O)CN(C)C)c2nc(-c3cccnc3)c(F)s2)cc1C(F)(F)F |  |  |  |  | <1 µM |
| CN(C)C(=S)Nc1cccc(OCCCCCOc2ccc(-c3ccccc3)cc2)c1 |  | Ava5-EG(delta4AB)SEAP | reporter gene / fluorescence |  | 0.001–1 µM |

3 of the rows above, restated:

compound,strain,cell line,read by,changes,value
NC(=S)Nc1cccc(OCCCCCOc2cccc(Oc3ccccc3)c2)c1,,Ava5-EG(delta4AB)SEAP,reporter gene / fluorescence,,0.001–1 µM
COc1c(-c2ccc3cc(NS(C)(=O)=O)ccc3c2)cc(-n2ccc(=O)[nH]c2=O)cc1C(C)(C)C,genotype 1b Con1,Huh7,luciferase,C316Y,0.926 µM
CCNC(=S)Nc1cccc(OCCCCCc2ccccc2)c1,,Ava5-EG(delta4AB)SEAP,reporter gene / fluorescence,,0.001–1 µM